Measured values from several laboratories, pooled; numbers as filed in NIAID ChemDB.

All rows: growth or infection tests; organism: Cytomegalovirus; measure: EC50

Lines come from different laboratories, so protocols vary. An empty or dashed field is not shown. ECn is the concentration giving n% inhibition of infection, replication or growth.

SMILES	read by	strain	cells	result
CCCc1cn([C@H]2C[C@H](O)[C@@H](CO)S2)c(=O)[nH]c1=O	plaque count	DAVIS/AD169	HEL	>1500 µM
Nc1nc(Cl)c2ncn(C[C@H]3CC[C@@H](CO)C3)c2n1	cytopathic effect	AD169	HEL	>5 µg/mL
O=C([O-])CN(CCN(CC(=O)[O-])CC(=O)[O-])CCN(CC(=O)[O-])CC(=O)[O-].[Mg+2].[Na+].[Na+].[Na+]	-	-	HFF	140 µM
Nc1ncnc2c1ncn2CCOCP(=O)(O)O	plaque count	DAVIS	HEL	25 µg/mL
Nc1nc(OCCOCP(=O)(O)O)cc(=O)[nH]1	cytopathic effect	-	HEL	>50 µg/mL
O=C(O)P(=O)(O)O	-	-	-	7.4 µM
Cc1cn([C@H]2C[C@H](O)[C@@H](CO)O2)c(=O)[nH]c1=O	plaque count	DAVIS/AD169	HEL	>2000 µM
Nc1nc2c(ncn2CCOCP(=O)(O)O)c(=O)[nH]1	plaque count	DAVIS	HEL	0.4 µg/mL
C[C@H](Cn1cnc2c(N)ncnc21)OCP(=O)(O)O	cytopathic effect	AD169	-	>350 µM
O=c1[nH]cnc2c1ncn2CCOCP(=O)(O)O	cytopathic effect	AD169	HEL	>400 µg/mL
Nc1ncnc2c1ncn2[C@@H]1C=C(CO)[C@@H](O)[C@H]1O	cytopathic effect	DAVIS	HEL	0.5 µg/mL
OC[C@H]1O[C@@H](n2c(Cl)nc3cc(Cl)c(Cl)cc32)[C@H](O)[C@@H]1O	-	-	-	0.2 µM
Nc1nc2c(ncn2C[C@H]2CC[C@@H](CO)C2)c(=O)[nH]1	cytopathic effect	DAVIS	HEL	>200 µg/mL
CCc1cn([C@H]2C[C@H](O)[C@@H](CO)O2)c(=O)[nH]c1=O	plaque count	DAVIS/AD169	HEL	>2000 µM
Nc1nc(N)c2nnn(C[C@H]3CC[C@@H](CO)C3)c2n1	cytopathic effect	DAVIS	HEL	>200 µg/mL
Nc1nc(N)c2ncn(CC(CO)OCP(=O)(O)O)c2n1	plaque count	AD169	HEL	100 µg/mL
Nc1ncnc2c1ncn2CCOCP(=O)(O)O	cytopathic effect	DAVIS	-	95 µM
O=c1[nH]c(=O)n([C@H]2C[C@H](O)[C@@H](CO)S2)cc1C1CC1	plaque count	DAVIS/AD169	HEL	>1500 µM
Nc1ccn(C[C@@H](CO)OCP(=O)(O)O)c(=O)n1	cytopathic effect	AD169	HEL	0.02 µg/mL
C[C@@H]1CC[C@H]2[C@@H](C)C(=O)O[C@@H]3OC4(C)CC[C@@H]1[C@]32OO4	plaque count	AD169	HEL	>50 µg/mL
Nc1nc(N)c2ncn(CCOCP(=O)(O)O)c2n1	plaque count	DAVIS	HEL	10 µg/mL
Nc1nc2c(nnn2C[C@H]2CC[C@@H](CO)C2)c(=O)[nH]1	cytopathic effect	DAVIS	HEL	>200 µg/mL